Laboratory results: PubChem BioAssay AID504761 (Drosophila RNAi Screening Center, 2011)

Screen: 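Insect host genes that dengue virus relies on to spread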 (primary screen)
Cells: D.Mel-2 cells from Drosophila
Knock-down reagent: long dsRNA against Drosophila genes
Challenge: infection with dengue virus type 2; dose and infection time not stated
Read-out: 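Per well on two replicate plates, imaging gave the percent of cells positive for viral envelope protein, ranked by infection, and a nuclear count of cells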
Direction: infection score: higher = more virus-infected cells
Call rule: 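Low infection ranks in the two replicates (chance level up to 0.065) followed by a retest with a 1.5-fold or larger significant decrease, p below 0.05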
Calls: active = confirmed: knock-down lowers infection; inactive = not picked or not confirmed
The screen tested about 22,000 reagents; below is an unselected part of those that have a named target and a result. Of all reagents, 116 (0.52%) are marked active. 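Calls depend on retest data that are not deposited; infection was ranked per plate without normalising between plates; the unit of the infection score is not given.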 Entries without a mark were called inactive. Not all columns of the deposit are shown. Not stated in the record: the amount of reagent, the time to read-out.

{"predicted target":"beta4GalNAcTA (beta1,4-N-acetylgalactosaminyltransferase A)","dsRNA":"DRSC05944","infection score, replicate 1":1.29}
{"predicted target":"CG15258","dsRNA":"DRSC02478","infection score, replicate 1":2.45}
{"predicted target":"l(3)72Dr (lethal (3) 72Dr)","dsRNA":"DRSC10478","infection score, replicate 1":1.19}
{"predicted target":"CG17362","dsRNA":"DRSC10267","infection score, replicate 1":3.29}
{"predicted target":"FoxP (Forkhead box P)","dsRNA":"DRSC15159","infection score, replicate 1":10}
{"predicted target":"FoxP (Forkhead box P)","dsRNA":"DRSC21961","infection score, replicate 1":2.81}
{"predicted target":"FoxP (Forkhead box P)","dsRNA":"DRSC29407","infection score, replicate 1":3.26}
{"predicted target":"IM33 (Immune induced molecule 33)","dsRNA":"DRSC00476","infection score, replicate 1":4.3}
{"predicted target":"IM33 (Immune induced molecule 33)","dsRNA":"DRSC24513","infection score, replicate 1":2.74}

Single entries from the entries so far:
Result for FoxP (Forkhead box P) [DRSC21961] in “infection score, replicate 1”: 2.81
Result for CG15258 [DRSC02478] under “infection score, replicate 1”: 2.45
l(3)72Dr (lethal (3) 72Dr) [DRSC10478], infection score, replicate 1 = 1.19

Next entries follow:
{"predicted target":"lola (longitudinals lacking)","dsRNA":"DRSC05220","infection score, replicate 1":2.41}
{"predicted target":"lola (longitudinals lacking)","dsRNA":"DRSC05221","infection score, replicate 1":2.86}
{"predicted target":"lola (longitudinals lacking)","dsRNA":"DRSC05222","infection score, replicate 1":"0.08 (active)"}
{"predicted target":"lola (longitudinals lacking)","dsRNA":"DRSC05223","infection score, replicate 1":0.33}
{"predicted target":"lola (longitudinals lacking)","dsRNA":"DRSC05224","infection score, replicate 1":2.56}
{"predicted target":"lola (longitudinals lacking)","dsRNA":"DRSC06738","infection score, replicate 1":18.1}
{"predicted target":"lola (longitudinals lacking)","dsRNA":"DRSC06740","infection score, replicate 1":11.7}
{"predicted target":"lola (longitudinals lacking)","dsRNA":"DRSC06741","infection score, replicate 1":8}
{"predicted target":"lola (longitudinals lacking)","dsRNA":"DRSC07646","infection score, replicate 1":13.9}
{"predicted target":"lola (longitudinals lacking)","dsRNA":"DRSC07647","infection score, replicate 1":3.16}
{"predicted target":"lola (longitudinals lacking)","dsRNA":"DRSC27862","infection score, replicate 1":6.82}
